Measured values from several laboratories, pooled; numbers as filed in NIAID ChemDB.

Shared fields: target-level tests

An empty or dashed field is not shown.

smiles | target | endpoint | organism | method | value
O=C(c1ccc([N+](=O)[O-])o1)N1CCN(c2nc3c(F)cc(F)cc3s2)CC1 | Thioredoxin reductase | IC50 | Plasmodium vivax | - | <4 µM
COc1cc(NC(C)CCCN)c2nccc(C)c2c1OCCCCCc1cccc(C)c1 | Hematin | IC50 | Plasmodium falciparum | nucleotide incorporation | 25 µM
COC(=O)CCS(=O)(=O)N(C)c1cc(C#N)cc(C2(C(C)C)C(C#N)=C(N)Oc3n[nH]c(C)c32)c1 | Serine hydroxymethyltransferase | Ki | Plasmodium falciparum | absorbance | 0.455 µM
COc1cc(NC(C)CCCN)c2nccc(C)c2c1OCCCCCc1ccccc1 | Hematin | IC50 | Plasmodium falciparum | nucleotide incorporation | 100 µM
CO[C@H](C(=O)NO)[C@@H](CC(C)C)C(=O)N[C@H](C(=O)O)c1ccccc1 | PfM1AAP | IC50 | Plasmodium falciparum | fluorescence | 0.078 µM
O=c1[nH]cnc2c1ncn2CCOCCP(=O)(O)O | Hypoxanthine-guanine-xanthine phosphoribosyltransferase | Ki | Plasmodium falciparum | absorbance | 0.3 µM
O=c1c2[nH]cnc2ncn1CCNCCP(=O)(O)O | Hypoxanthine-guanine-xanthine phosphoribosyltransferase | IC50 | Plasmodium falciparum | absorbance | >200 µM
CCCCCCOc1c(OC)cc(NC(C)CCCN)c2nccc(C)c12 | Hematin | IC50 | Plasmodium falciparum | nucleotide incorporation | 32 µM
Cc1[nH]nc2c1C(c1cc(Cl)cc(N3CCOCC3)c1)(C1CCC1)C(C#N)=C(N)O2 | Serine hydroxymethyltransferase | IC50 | Plasmodium falciparum | absorbance | 0.48 µM
CCCCCn1c(Sc2ccc(C#N)c([N+](=O)[O-])c2)nnc1-c1cccs1 | Thioredoxin reductase | IC50 | Plasmodium vivax | - | 4.5 µM
CN1CCC(NC2=CCC3=NC=C(c4cnn(-c5ccc(F)cc5F)c4)[N+]3=N2)CC1 | Calcium-dependent protein kinase 1 | IC50 | Plasmodium falciparum | - | 0.203 µM
Cc1ccc(Cl)c2nc(N3CCN(C(=O)c4ccc([N+](=O)[O-])o4)CC3)sc12 | Thioredoxin reductase | IC50 | Plasmodium vivax | - | <4 µM
COc1cc(C)c2c(Oc3cccc(C(F)(F)F)c3)c(OC)cc(NC(C)CCCN)c2n1 | Hematin | IC50 | Plasmodium falciparum | nucleotide incorporation | 16 µM
Cc1[nH]nc2c1C(c1cc(Br)cc(C#N)c1)(C(C)C)C(C#N)=C(N)O2 | Serine hydroxymethyltransferase | IC50 | Plasmodium falciparum | absorbance | 0.21 µM
CC(C)CCn1cc(C2=CN=C3CC=C(NC4CCN(C)CC4)N=[N+]23)cn1 | Calcium-dependent protein kinase 1 | IC50 | Plasmodium falciparum | - | 1.5 µM
COc1ccc2c(c1)SC(C1CC1)C1=C(N2)c2ccccc2C1=O | NDH2 | IC50 | Plasmodium falciparum | fluorescence | >20 µM
Cc1[nH]nc2c1C(c1cc(C#N)cc(-c3ccnn3C)c1)(C1CCC1)C(C#N)=C(N)O2 | Serine hydroxymethyltransferase | IC50 | Plasmodium falciparum | absorbance | 0.53 µM
Cc1c(-c2ccc(-c3ccc(OC(C)(C)C)cc3)nc2)[nH]c2ccccc2c1=O | Cytochrome bc1 | IC50 | Plasmodium falciparum | - | 0.0151 µM
NC1CCC(NC2=CCC3=NC=C(c4cn[nH]c4)[N+]3=N2)CC1 | Calcium-dependent protein kinase 1 | IC50 | Plasmodium falciparum | - | 0.07 µM
COc1cc(NC(C)CCCN)c2nccc(C)c2c1OCCCCCc1c(C)cccc1C | Hematin | IC50 | Plasmodium falciparum | nucleotide incorporation | 61 µM

ICn: concentration for n% inhibition. Rows are shuffled and stem from different studies.